Compound potency records, mixed from different reports. Data source: NIAID ChemDB in PubChem.

All rows: growth or infection tests; species: Vaccinia virus

ECn is the concentration giving n% inhibition of infection, replication or growth. Blank or dashed fields: not listed here. Conditions beyond the fields shown may differ between rows. a–b is a range or a potency band.

Nc1nc2c(ncn2CCOCP(=O)(O)O)c(=O)[nH]1 ; read-out: EC50 ; strain: Copenhagen ; cells: HFF ; value: 5.4 µM
CO[C@@H]1[C@H](O)[C@@H](CO)O[C@H]1c1ccccc1 ; read-out: EC50 ; cells: E6SM ; value: >400 µg/mL
Nc1nc2c(nc(Cl)n2COCCO)c(=O)[nH]1 ; read-out: EC50 ; cells: PRK ; value: >400 µg/mL
CCOC[C@H]1O[C@@H](n2ccc(N)nc2=O)[C@@H](O)[C@@H]1O ; read-out: EC50 ; cells: PRK ; value: >200 µg/mL
CN(C)c1ncnc2c1ncn2COCCO ; read-out: EC50 ; cells: PRK ; value: >400 µg/mL
C=Cc1cc([C@H]2C[C@H](O)[C@@H](CO)O2)c(F)cc1F ; read-out: EC50 ; cells: E6SM ; value: >400 µg/mL
CC(C)CS[C@H]1C[C@@H](n2cnc3c(N)ncnc32)[C@H](O)[C@@H]1O ; read-out: EC50 ; cells: E6SM ; value: 240 µg/mL
CS(=O)Cc1cn([C@H]2C[C@H](O)[C@@H](CO)O2)c(=O)[nH]c1=O ; read-out: EC50 ; cells: PRK ; value: >400 µg/mL
Nc1ncnc2c1ncn2[C@@H]1C=C[C@@H](O)[C@H]1O ; read-out: MIC ; value: 0.7 µg/mL
Nc1ncnc2c1ncn2[C@@H]1C=C(CO)[C@@H](O)[C@H]1O ; read-out: EC50 ; cells: E6SM ; value: 0.7 µg/mL
O=c1cc(O)ccn1COCCO ; read-out: EC50 ; cells: PRK ; value: >400 µg/mL
CC(=O)OC[C@H]1O[C@@H](n2cc(SC#N)c(=O)[nH]c2=O)[C@H](OC(C)=O)[C@@H]1OC(C)=O ; read-out: EC50 ; cells: PRK ; value: 100 µg/mL
CO[C@H](CO)[C@@H](O)CCn1cc(C)c(=O)[nH]c1=O ; read-out: EC50 ; cells: E6SM ; value: >400 µg/mL
Nc1nc2c(ncn2COCCO)c(=O)[nH]1 ; read-out: EC50 ; cells: PRK ; value: 70 µg/mL
Nc1ncnc2c1ncn2[C@@H]1O[C@H](CO)[C@@H](O)[C@H]1OP(=O)(O)OC[C@H]1O[C@@H](n2cnc3c(N)ncnc32)[C@H](OP(=O)(O)OC[C@H]2O[C@@H](n3cc(/C=C/Br)c(=O)[nH]c3=O)C[C@@H]2O)[C@@H]1O ; read-out: EC50 ; cells: PRK ; value: 7 µg/mL
Nc1nccc2c1ncn2[C@H]1C[C@H](O)[C@@H](CO)O1 ; read-out: EC50 ; cells: VERO ; value: >397 µM
CO[C@H]1[C@H](O)[C@H](n2ccc(N)nc2=O)O[C@@H]1CO ; read-out: EC50 ; cells: PRK ; value: >200 µg/mL
Nc1nc2c(ncn2COCCOP(=O)(O)O[C@@H]2[C@H](O)[C@@H](COP(=O)(O)O[C@@H]3[C@H](O)[C@@H](CO)O[C@H]3n3cnc4c(N)ncnc43)O[C@H]2n2cnc3c(N)ncnc32)c(=O)[nH]1 ; read-out: EC50 ; cells: PRK ; value: >100 µg/mL
O=c1[nH]c(=O)n([C@H]2C[C@H](O)[C@@H](CO)O2)cc1I ; read-out: EC50 ; cells: HSF ; value: 0.2 µg/mL
CCc1cn([C@H]2C[C@H](O)[C@@H](COP(=O)(O)O)O2)c(=O)[nH]c1=O ; read-out: EC50 ; cells: BSC-1 ; value: 41 µg/mL
CO[C@H]1[C@H]2O[Si](C(C)C)(C(C)C)O[Si](C(C)C)(C(C)C)OC[C@@H]2O[C@@H]1c1ccccc1 ; read-out: EC50 ; cells: E6SM ; value: >16 µg/mL
OC[C@H]1O[C@@H](c2cc(C#CI)c(F)cc2F)C[C@@H]1O ; read-out: EC50 ; cells: E6SM ; value: >400 µg/mL
Nc1nc(=O)n(C2CC(O)C(CO)O2)cc1CCCl ; read-out: EC50 ; cells: PRK ; value: 400 µg/mL
CO[C@H](CO)[C@@H](O)CCn1cnc2c(=O)[nH]c(N)nc21 ; read-out: EC50 ; cells: E6SM ; value: >400 µg/mL
O=c1[nH]c(=O)n([C@H]2C[C@@H](CO)[C@H](O)C2)cc1I ; read-out: EC50 ; cells: PRK ; value: ≥400 µg/mL
CCc1cn([C@H]2C[C@H](O)[C@@H](CO)O2)c(=O)[nH]c1=O ; read-out: EC50 ; cells: HEP-2 ; value: 16 µg/mL
Nc1ncnc2c1ncn2C[C@H](O)CO ; read-out: EC50 ; cells: HEL ; value: >20 µg/mL
Nc1nccc2c1ncn2[C@@H]1C=C(CO)[C@@H](O)[C@H]1O ; read-out: MIC ; value: 0.07 µg/mL
Nc1ncnc2c1ncn2[C@@H]1C=C(CO)[C@@H](O)[C@H]1O ; read-out: EC50 ; cells: E6SM ; value: 0.2 µg/mL
Nc1ncnc2c1ncn2C[C@H](O)CO ; read-out: EC50 ; cells: PRK ; value: 10–20 µg/mL
O=C(CI)NCc1cn([C@H]2C[C@H](O)[C@@H](CO)O2)c(=O)[nH]c1=O ; read-out: EC50 ; cells: HSF ; value: 100 µg/mL
CC(=O)OCCOCn1cnc2c(Cl)nc(N)nc21 ; read-out: EC50 ; cells: PRK ; value: 70 µg/mL
Nc1ccn(CC[C@H](O)CCO)c(=O)n1 ; read-out: EC50 ; cells: E6SM ; value: >400 µg/mL
O=c1[nH]c(=O)n([C@H]2C[C@H](O)[C@@H](CO)O2)cc1CCCl ; read-out: EC50 ; cells: PRK ; value: 112 µg/mL
Nc1ncnc2c1ncn2C[C@@H](CO)OCP(=O)(O)O ; read-out: MIC ; value: 0.7 µg/mL
C=C[C@@H](O)C1=C[C@@H](n2cnc3c(N)ncnc32)[C@H](O)[C@@H]1O ; read-out: EC50 ; cells: E6SM ; value: 0.2 µg/mL
O=c1[nH]c(=O)n(C2CC(CO)[C@H](O)C2)cc1I ; read-out: EC50 ; cells: PRK ; value: 150 µg/mL
Nc1ncnc2c1ncn2CC[C@H](O)CCO ; read-out: EC50 ; cells: E6SM ; value: >400 µg/mL
OC[C@H]1O[C@@H](n2nnc3ccnc(Cl)c32)C[C@@H]1O ; read-out: EC50 ; cells: VERO ; value: >368 µM
CN1CCN(Cc2cn([C@H]3C[C@H](O)[C@@H](CO)O3)c(=O)[nH]c2=O)CC1 ; read-out: EC50 ; cells: HSF ; value: ≥200 µg/mL
Nc1nc(=O)ccn1COCCO ; read-out: EC50 ; cells: PRK ; value: >400 µg/mL
Nc1nccc2c1ncn2[C@@H]1C=C[C@@H](O)[C@H]1O ; read-out: MIC ; value: 0.7 µg/mL
CCCCOC[C@H]1O[C@@H]2CC(C)(C)C[C@@H]2[C@H]1OCCCC ; read-out: EC50 ; cells: E6SM ; value: >48 µg/mL
N#CSc1cn([C@H]2C[C@H](O)[C@@H](CO)O2)c(=O)[nH]c1=O ; read-out: EC50 ; cells: PRK ; value: 4 µg/mL
O=S(=O)(O)c1c2ccccc2c(-c2c3nc(c(-c4c5ccccc5c(S(=O)(=O)O)c5ccccc45)c4ccc([nH]4)c(-c4c5ccccc5c(S(=O)(=O)O)c5ccccc45)c4nc(c(-c5c6ccccc6c(S(=O)(=O)O)c6ccccc56)c5ccc2[nH]5)C=C4)C=C3)c2ccccc12 ; read-out: EC50 ; strain: WR ; cells: BSC-40 ; value: 0.15 µg/mL
Nc1nccc2c1nnn2[C@@H]1O[C@H](CO)[C@@H](O)[C@H]1O ; read-out: EC50 ; cells: VERO ; value: >398 µM
O=c1[nH]c(=O)n(COCCO)cc1/C=C/Br ; read-out: EC50 ; cells: PRK ; value: >400 µg/mL
Nc1ncnc2c1ncn2[C@H]1C[C@H](O)[C@@H](C=O)O1 ; read-out: EC50 ; cells: HEL ; value: 400 µg/mL
Nc1nccc2nn([C@H]3C[C@H](O)[C@@H](CO)O3)nc12 ; read-out: EC50 ; cells: VERO ; value: 200 µM
OC[C@H]1O[C@@H](c2cc(/C=C/I)c(F)cc2F)C[C@@H]1O ; read-out: EC50 ; cells: E6SM ; value: >400 µg/mL

Repeating the first 5 entries:

structure,read-out,strain,cells,value
Nc1nc2c(ncn2CCOCP(=O)(O)O)c(=O)[nH]1,EC50,Copenhagen,HFF,5.4 µM
CO[C@@H]1[C@H](O)[C@@H](CO)O[C@H]1c1ccccc1,EC50,-,E6SM,>400 µg/mL
Nc1nc2c(nc(Cl)n2COCCO)c(=O)[nH]1,EC50,-,PRK,>400 µg/mL
CCOC[C@H]1O[C@@H](n2ccc(N)nc2=O)[C@@H](O)[C@@H]1O,EC50,-,PRK,>200 µg/mL
CN(C)c1ncnc2c1ncn2COCCO,EC50,-,PRK,>400 µg/mL